The exact form of at least one protein or probe is not confirmed.
System: SrpA (Pseudomonas aeruginosa PAK)
Test: EMSA
Conditions: 2x binding buffer: 40 mM Tris-HCl pH 7.5, 4 mM MgCl2, 100 mM NaCl, 10% glycerol, 2 mM DTT, 0.2 mg/ml BSA, 0.02 mg/ml poly(dI-dC), 1 mM EDTA; 25 C 30 min; SrpA 0-7.42 uM; recombinant protein; residues 1-84; protein details: His-tag (pQE30); label: Cy3; probe letters rebuilt from the primers and the genome; part of a longer molecule

“CCTCTTAATCAAGGATGTGAGGCGACGGCGATCTGTTTTAAAACTGAAGCTTGCCAAGATAATCACACCCCATGCTAAGGTCTTGAGGACCGGGGTTGCACTGGTTGTAAAGCTTCTCCCGTCTTGCAAAACCGATGTAGAATTCCCGTGTTACGTTGTCGGGGTCTAGGTCATTAGCCAGCATATCCGATTTGGAGATACCGCCAGCATATGGCACGGCCAAAGAAATTGCAATATTCGGGTCTTTGAGAATGAG (double strand) [gp058 promoter]”: binds.

Reference: article PMC5945682
